Results as given in ChEMBL document CHEMBL1133601, “Methyl-substituted dispiro-1,2,4,5-tetraoxanes: correlations of structural studies with antimalarial activity” (J Med Chem, 2000).

How the values were obtained:
[1] = tested on: Plasmodium falciparum; assay: In vitro antimalarial activity against Plasmodium falciparum D6 (Sierra Leone); assay type: functional, organism-based
[2] = tested on: Plasmodium falciparum; assay: In vitro antimalarial activity against Plasmodium falciparum W2 (Indochina); assay type: functional, organism-based

## C1CCC2(CC1)OOC1(CCCCC1)OO2
[1]
  IC50: 38 nM
[2]
  IC50: 26 nM
